A mixed list of measured activities; the numbers were collected in NIAID ChemDB.

All rows: growth or infection tests; organism: Mycobacterium avium; read-out: MIC

a–b is a range or a potency band.

CCCCCC(N)=NC[C@H]1O[C@H](O[C@H]2O[C@H](CN=C(N)CCCCC)[C@@H](O)[C@H](O)[C@H]2O)[C@H](O)[C@@H](O)[C@@H]1O ; strain: NJ3404 ; value: >128 µg/mL
CCCCSc1nnnn1-c1ccc(C)cc1 ; strain: 80/72 ; value: 125 µM
NC[C@H]1O[C@H](O[C@H]2O[C@H](CN)[C@@H](O)[C@H](O)[C@H]2O)[C@H](O)[C@@H](O)[C@@H]1O ; strain: NJ168 ; value: >128 µg/mL
CCCCSc1nnnn1-c1ccc(C)c(C)c1 ; strain: 80/72 ; value: 125 µM
Cc1ccc2oc(=S)n(-c3ccc(C(F)(F)F)cc3)c(=S)c2c1 ; conditions: 21 d ; strain: MY330/88 ; value: 32 µM
O=C(C/C=C/c1ccccc1)Nc1ccc(N2CCSCC2)cc1 ; strain: 103317 ; value: 4 µg/mL
CCCCCCCOc1cccc(NC(=O)OCCN2CCCCCC2)c1 ; strain: MY330/88 ; value: 16 µM
CCCCCCCOc1cccc(NC(=O)OCCN2CCCCC2)c1 ; strain: MY330/88 ; value: 32 µM
O=C(Oc1ccc(Br)cc1C(=O)Nc1ccc(C(F)(F)F)cc1)c1cnccn1 ; conditions: 21 d ; strain: 330/88 ; value: 4 µM
CCCCCCOc1ccc(NC(=O)OCCN2CCCCCC2)cc1 ; strain: MY330/88 ; value: 8 µM
Cc1ccc(CSc2ncn[nH]2)cc1 ; strain: MY330/88 ; value: 500 µM
CCCCCOc1ccccc1NC(=O)OC(C)CN1CCCCC1 ; strain: MY330/88 ; value: 125 µM
N/C(=N\NC(CC(=O)c1ccc(-c2ccccc2)cc1)c1cccnc1)c1ccccn1 ; strain: 485 ; value: 16 µg/mL
NC(=O)c1cnccn1 ; conditions: 14 d ; strain: 330/88 ; value: >1000 µM
COc1ccc2oc(=O)n(-c3cccc(F)c3)c(=S)c2c1 ; conditions: 14 d ; strain: MY330/88 ; value: 62.5 µM
COc1cccc(CSc2ncn[nH]2)c1 ; strain: MY330/88 ; value: 1000 µM
O=C(Oc1cc(Cl)ccc1C(=O)Nc1cccc(Cl)c1)c1cnccn1 ; conditions: 14 d ; strain: 330/88 ; value: 4 µM
CCSc1nnnn1-c1ccc(C)c(C)c1 ; strain: 80/72 ; value: 250 µM
COc1ccc(NC(=O)OCCN2CCOCC2)cc1 ; strain: MY330/88 ; value: 1000 µM
O=C(C/C=C/c1ccccc1)Nc1ccccc1N1CCSCC1 ; strain: 103317 ; value: >16 µg/mL
N/C(=N\NC(CC(=O)c1ccc(Cl)c(Cl)c1)c1ccccn1)c1ccccn1 ; strain: 485 ; value: 8 µg/mL
CCCCCCCCCCCCNC[C@H]1O[C@H](O[C@H]2O[C@H](CNCCCCCCCCCCCC)[C@@H](O)[C@H](O)[C@H]2O)[C@H](O)[C@@H](O)[C@@H]1O ; strain: NJ3009 ; value: 8 µg/mL
CCOc1c(N2CCC(C(C)(C)N)C2)c(F)cc2c(=O)c(C(=O)O)cn(C3CC3)c12 ; strain: RG3 ; value: 0.25 µg/mL
CCCCCCOc1ccccc1NC(=O)OCCN(C)C ; strain: MY330/88 ; value: 32 µM
Clc1ccc2c(c1)nc1cc(Nc3ccccc3)c(=NC3CCCCC3)cc-1n2-c1ccccc1 ; strain: 6193 ; value: 3.3 µg/mL
N#Cc1ccc(CSc2ncn[nH]2)cc1 ; strain: MY330/88 ; value: 500 µM
Cc1ccc(-n2c(=O)oc3ccc(Cl)cc3c2=O)cc1 ; strain: CNCTC MY330/88 ; value: 8 µM
O=C(Oc1cc(Cl)ccc1C(=O)Nc1ccc(Cl)c(Cl)c1)c1cnccn1 ; conditions: 14 d ; strain: 330/88 ; value: 8 µM
Cc1cc(C)c(-n2nnnc2SC(C)C)c(C)c1 ; strain: 80/72 ; value: 1000 µM
O=c1oc2ccc(Br)cc2c(=S)n1-c1ccccc1 ; conditions: 14 d ; strain: MY330/88 ; value: 8 µM
COc1ccccc1NC(=O)OCCN1CCCCC1 ; strain: MY330/88 ; value: 500 µM
Cc1ccc(C(=O)Nc2nc(C)cc(C)n2)c(O)c1 ; strain: MY330/88 ; value: 1000 µM
CCCCCOc1cccc(NC(=O)OCCN2CCCCC2)c1 ; strain: MY330/88 ; value: 32 µM
c1ccc(-c2ccc(CNc3cccc(-n4ccnc4)c3)cc2)cc1 ; strain: 103317 ; value: 1 µg/mL
N/C(=N\NC(CC(=O)c1cccc(Cl)c1)c1ccncc1)c1ccccn1 ; strain: 485 ; value: 8 µg/mL
Cc1cccc(-n2nnnc2SC(C)C)c1 ; strain: 80/72 ; value: 500 µM
Cc1cccc(CSc2ncn[nH]2)c1 ; strain: MY330/88 ; value: 250 µM
O=C(Oc1ccc(Cl)cc1C(=O)Nc1ccc(F)cc1)c1cnccn1 ; conditions: 21 d ; strain: 330/88 ; value: 16 µM
Cc1ccc(-n2c(=S)oc3ccc(Br)cc3c2=S)cc1 ; conditions: 14 d ; strain: MY330/88 ; value: 16 µM
CC[C@H]1OC(=O)[C@H](C)C(=O)[C@H](C)[C@@H](O[C@@H]2O[C@H](C)C[C@H](N(C)C)[C@H]2O)[C@](C)(OC)C[C@@H](C)C(=O)[C@H](C)[C@H]2N(CCCCn3cnc(-c4cccnc4)c3)C(=O)O[C@]12C ; strain: Isolate 1295 ; value: ≥40 µg/mL
COc1ccc(-n2c(=O)oc3ccc(F)cc3c2=O)cc1 ; strain: CNCTC MY330/88 ; value: 16 µM
c1cc(CSc2ncn[nH]2)cc(-c2nn[nH]n2)c1 ; strain: MY330/88 ; value: >500 µM
Cc1cc(NC(=O)c2ccccc2O)no1 ; strain: MY330/88 ; value: 62.5 µM
CC(C)(C)n1cc(C(=O)O)c(=O)c2cc(F)c(N3CCNCC3)nc21 ; strain: 101 ; value: 1 µg/mL
CCCCCCCCCCCCN(CCCCCCCCCCCC)C[C@H]1O[C@H](O[C@H]2O[C@H](CN(CCCCCCCCCCCC)CCCCCCCCCCCC)[C@@H](O)[C@H](O)[C@H]2O)[C@H](O)[C@@H](O)[C@@H]1O ; strain: NJ1854 ; value: >128 µg/mL
Cc1csc(NC(=O)c2cc(Cl)ccc2O)n1 ; strain: MY330/88 ; value: 62.5 µM
CCCCOc1ccccc1NC(=O)OCCN1CCCCC1 ; strain: MY330/88 ; value: 62.5 µM
CCCCCCCCS(=O)(=O)NC[C@H]1O[C@H](O[C@H]2O[C@H](CNS(=O)(=O)CCCCCCCC)[C@@H](O)[C@H](O)[C@H]2O)[C@H](O)[C@@H](O)[C@@H]1O ; strain: NJ3009 ; value: 32–64 µg/mL
Clc1ccccc1CSc1ncn[nH]1 ; strain: MY330/88 ; value: 1000 µM
COc1ccc2c(=O)n(-c3ccc([N+](=O)[O-])cc3)c(=O)oc2c1 ; strain: CNCTC MY330/88 ; value: 32 µM
COc1ccc(C(=O)Nc2cnccn2)c(O)c1 ; strain: MY330/88 ; value: 250 µM
Cc1ccc2c(=O)n(-c3ccc(F)cc3)c(=O)oc2c1 ; strain: CNCTC MY330/88 ; value: 62.5 µM
Cc1ccc2oc(=O)n(-c3cccc(Cl)c3)c(=S)c2c1 ; conditions: 21 d ; strain: MY330/88 ; value: 4 µM
Cc1cccc(C(N)=Nc2nc(-c3ccccn3)cc3ccccc23)c1 ; strain: SK-22 ; value: 4 µg/mL
O=C(Nc1cncs1)c1ccccc1O ; strain: MY330/88 ; value: 250 µM
CCCCC(CC)CN(CC(CC)CCCC)C[C@H]1O[C@H](O[C@H]2O[C@H](CN(CC(CC)CCCC)CC(CC)CCCC)[C@@H](O)[C@H](O)[C@H]2O)[C@H](O)[C@@H](O)[C@@H]1O ; strain: NJ3404 ; value: 64 µg/mL
COc1ccc2oc(=O)n(-c3ccc(C#N)cc3)c(=O)c2c1 ; strain: CNCTC MY330/88 ; value: 32 µM
O=C(Nn1cncn1)c1cc(Br)ccc1O ; strain: MY330/88 ; value: 1000 µM
COc1ccc2c(=O)n(-c3ccccc3)c(=O)oc2c1 ; strain: CNCTC MY330/88 ; value: 125 µM
N/C(=N\NC(CC(=O)c1ccc(-c2ccccc2)cc1)c1ccncc1)c1ccccn1 ; strain: 485 ; value: 8 µg/mL
COc1ccc2c(=O)n(-c3ccc(C)cc3)c(=O)oc2c1 ; strain: CNCTC MY330/88 ; value: 62.5 µM
CN1CCN(c2cccc(NCc3ccc(-c4ccccc4)cc3)c2)CC1 ; strain: 103317 ; value: >16 µg/mL

The first 8 rows once more:

SMILES,conditions,strain,value
CCCCCC(N)=NC[C@H]1O[C@H](O[C@H]2O[C@H](CN=C(N)CCCCC)[C@@H](O)[C@H](O)[C@H]2O)[C@H](O)[C@@H](O)[C@@H]1O,,NJ3404,>128 µg/mL
CCCCSc1nnnn1-c1ccc(C)cc1,,80/72,125 µM
NC[C@H]1O[C@H](O[C@H]2O[C@H](CN)[C@@H](O)[C@H](O)[C@H]2O)[C@H](O)[C@@H](O)[C@@H]1O,,NJ168,>128 µg/mL
CCCCSc1nnnn1-c1ccc(C)c(C)c1,,80/72,125 µM
Cc1ccc2oc(=S)n(-c3ccc(C(F)(F)F)cc3)c(=S)c2c1,21 d,MY330/88,32 µM
O=C(C/C=C/c1ccccc1)Nc1ccc(N2CCSCC2)cc1,,103317,4 µg/mL
CCCCCCCOc1cccc(NC(=O)OCCN2CCCCCC2)c1,,MY330/88,16 µM
CCCCCCCOc1cccc(NC(=O)OCCN2CCCCC2)c1,,MY330/88,32 µM

Rows are shuffled and stem from different studies. Blank or dashed fields: not listed here.